# Assay results from patent US7033509B2 (priority 2000, dated 2006).
# System: fungi on the surface of potato
# Test: Potato (Sanitizing Unit), total fungi on surface
# Assay type: cell-based
# Conditions: Sanitizing Unit dip 1 min, 30 ppm, vs undipped control
substance,measurement,value
chlorine,Fungal population per cm^2 Log10 reduction,1.46 c log10 units
